Our source for the SI50 values is patent publication US20260191850A1, “USE OF 8-HYDROXYQUINOLINE DERIVATIVE” (Jiangsu Yahong Meditech Co., Ltd., priority 2022, published 2026).

Bounds are passed on as bounds.

What all share (format): cell-based
Data set [1] has as its system Human Papillomavirus 11 (HPV11). Nature of the data set: Transient transfection HPV replication assay (E1/E2 plasmids, NanoLuc reporter), HPV11. The following applies: SI50=CC50/EC50, HPV11 strain HE611260.1, C-33 A cells. As to the method:
The antiviral activity of 7-nitro-8-hydroxyquinoline derivatives against human papillomavirus (HPV) was tested and evaluated using transient transfection assays. This evaluation system included plasmids expressing viral helicase E1 and replication origin binding protein E2, plasmids containing NanoLuc gene of which the expression was driven by a TK promoter (Promega company), and replication origin sequences of human papillomavirus strains listed below. […] The positions of replication origin sequences of the three NanoLuc reporter plasmids were 7825-7993:1-99, 7662-7901:1-99, and 7740-7837:1-102 for HPV-11 (NCBI Accession No. HE611260.1), HPV-16 (NCBI Accession No. KP212151.1), and HPV-18 (NCBI Accession No. KC470230.1), respectively. The positions of E1 open reading frame (ORF) sequences corresponding to HPV-11, HPV-16 and HPV-18 were 832-2781, 864-2813 and 914-2887 in the same sequences, respectively. The positions of E2 open reading frame (ORF) sequences corresponding to HPV-11, HPV-16 and HPV-18 were 2723-3826, 2755-3852 and 2817-3908 in the same sequences, respectively. The cells used for transient transfection were C-33A cells (ATCC HTB-31), and the culture medium was DMEM supplemented with Earle's salt, L-glutamine and 2% fetal bovine serum. In the experiment, the NanoLuc expression plasmid (5 ng/well) was co-transfected with the E1 and E2 expression plasmids of the homologous virus by using Lipofectamine LTXL and Plus Reagent (Invitrogen product, Thermo Fisher Scientific company). […] Meanwhile, the transfected cells were also seeded into duplicated dishes containing the same dilution of test drugs to assess cytotoxicity. All transfected monolayer cells were incubated at 37° C. for 48 hours. The NanoLuc activity expressed by the reporter plasmids was detected with Nano-Glo reagent (Promega company), the cell viability in cytotoxicity plates was measured with CellTiter-Glo reagent (Promega company), and the luminescence intensity was quantified on a microplate reader. The meanings of EC50, CC50, and SI50 were the same as those well-known in the art (where SI50=CC50/EC50), and were not described here. […]

The subject of data set [2] is Human Papillomavirus 16 (HPV16). Nature of the data set: Transient transfection HPV replication assay (E1/E2 plasmids, NanoLuc reporter), HPV16. The following applies: SI50=CC50/EC50, HPV16 strain KP212151.1, C-33 A cells. As for the experimental part:
(§1) The antiviral activity of 7-nitro-8-hydroxyquinoline derivatives against human papillomavirus (HPV) was tested and evaluated using transient transfection assays. This evaluation system included plasmids expressing viral helicase E1 and replication origin binding protein E2, plasmids containing NanoLuc gene of which the expression was driven by a TK promoter (Promega company), and replication origin sequences of human papillomavirus strains listed below. […] The positions of replication origin sequences of the three NanoLuc reporter plasmids were 7825-7993:1-99, 7662-7901:1-99, and 7740-7837:1-102 for HPV-11 (NCBI Accession No. HE611260.1), HPV-16 (NCBI Accession No. KP212151.1), and HPV-18 (NCBI Accession No. KC470230.1), respectively. The positions of E1 open reading frame (ORF) sequences corresponding to HPV-11, HPV-16 and HPV-18 were 832-2781, 864-2813 and 914-2887 in the same sequences, respectively. The positions of E2 open reading frame (ORF) sequences corresponding to HPV-11, HPV-16 and HPV-18 were 2723-3826, 2755-3852 and 2817-3908 in the same sequences, respectively. The cells used for transient transfection were C-33A cells (ATCC HTB-31), and the culture medium was DMEM supplemented with Earle's salt, L-glutamine and 2% fetal bovine serum. In the experiment, the NanoLuc expression plasmid (5 ng/well) was co-transfected with the E1 and E2 expression plasmids of the homologous virus by using Lipofectamine LTXL and Plus Reagent (Invitrogen product, Thermo Fisher Scientific company). […] Meanwhile, the transfected cells were also seeded into duplicated dishes containing the same dilution of test drugs to assess cytotoxicity. All transfected monolayer cells were incubated at 37° C. for 48 hours. The NanoLuc activity expressed by the reporter plasmids was detected with Nano-Glo reagent (Promega company), the cell viability in cytotoxicity plates was measured with CellTiter-Glo reagent (Promega company), and the luminescence intensity was quantified on a microplate reader. The meanings of EC50, CC50, and SI50 were the same as those well-known in the art (where SI50=CC50/EC50), and were not described here.
(§2) J Med Chem. 2016; 59 (23): 10470-8. • Kachaeva, M. et al. In vitro activity of novel 1,3-oxazole derivatives against HPV. Ibnosina J Med Biomed Sci. 2017; 9 (4): 111-8.

The subject of data set [3] is Human Papillomavirus 18 (HPV18). Nature of the data set: Transient transfection HPV replication assay (E1/E2 plasmids, NanoLuc reporter), HPV18. The note with it: SI50=CC50/EC50, HPV18 strain KC470230.1, C-33 A cells. As to the method: as §1, §2

For the compound “4-methoxy-7-nitroquinolin-8-ol [Example 21]”, in data set [1], the SI50 is under 4. Same read-out and setting: next, `CNc1c([N+](=O)[O-])c(O)c2ncccc2c1Cl` [Compound 7, 5-chloro-6-(methylamino)-7-nitroquinolin-8-ol]: 4; `O=[N+]([O-])c1cc(Cl)c2c(Cl)ccnc2c1O` [Compound 29, 4,5-dichloro-7-nitroquinolin-8-ol]: 3. `O=[N+]([O-])c1ccc2c(C3CCCCC3)ccnc2c1O` [Compound 32, 4-cyclohexyl-7-nitroquinolin-8-ol]: the SI50 in data set [2] is 218; in data set [3], over 245; in data set [1], over 112.

In data set [1], `O=[N+]([O-])c1ccc2c(C(F)(F)F)ccnc2c1O` [Compound 62, 7-nitro-4-trifluoromethylquinolin-8-ol] registered an SI50 of under 5. As to `Cl.O=[N+]([O-])c1cc(Cl)c2c(C(F)(F)F)ccnc2c1O` [Compound 73, 5-chloro-7-nitro-4-(trifluoromethyl)-quinolin-8-ol hydrochloride], the SI50 in data set [2] amounted to 119; in data set [1], 137. Consider `O=[N+]([O-])c1ccc2c(Cl)c(C3CC3)cnc2c1O` [Compound 74, 4-chloro-3-cyclopropyl-7-nitroquinolin-8-ol], for which the SI50 in data set [2] was 369; in data set [3] it was over 1271; in data set [1], 60.

For the compound `O=[N+]([O-])c1c(Br)c(Cl)c2cccnc2c1O` [Compound 114, 6-bromo-5-chloro-7-nitroquinolin-8-ol], the SI50 in data set [1] is under 5. The same measure, in the same setting: with `O=[N+]([O-])c1c(Cl)c(Cl)c2cccnc2c1O` [Compound 115, 5,6-dichloro-7-nitroquinolin-8-ol] the figure was under 4; with `O=[N+]([O-])c1c(Cl)c(F)c2cccnc2c1O` [Compound 123, 6-chloro-5-fluoro-7-nitroquinolin-8-ol], under 5.

`Cc1ccnc2c(O)c(C#N)cc(Cl)c12` [Compound 131, 4-methyl-5-chloro-7-cyano-8-hydroxyquinoline]: the SI50 in data set [2] is on record as 24; in data set [3], 85; in data set [1] it was 10. For the compound `N#Cc1c(Cl)c(Cl)c2cccnc2c1O` [Compound 133, 5,6-dichloro-7-cyano-8-hydroxyquinoline], in data set [1], the SI50 was under 5. Take `Cc1cc(C#N)c(O)c2ncccc12` [Compound A1]: the SI50 in data set [1] was under 3. For `O=[N+]([O-])c1ccc(O)c2ncccc12` [Compound A2, 5-nitro-8-hydroxyquinoline, reference compound], the figures for the SI50 in data set [2], in data set [3] and in data set [1] were 23, 64 and 53, respectively. Compound `O=[N+]([O-])c1ccc2c(NC3COC3)ccnc2c1O` [Example 19, 7-nitro-4-(3-oxetanylamino)quinolin-8-ol] had an SI50 in data set [1] of 8.

Regarding `CN(C)C(=O)N1CCN(c2ccnc3c(O)c([N+](=O)[O-])ccc23)CC1` [Example 25, 4-(8-hydroxy-7-nitroquinolin-4-yl)-N,N-dimethylpiperazine-1-carboxamide], the SI50 in data set [2] is on record as 84; in data set [3], 59; in data set [1], over 70.

In turn, `O=[N+]([O-])c1ccc2c(C3CCCCC3)ccnc2c1O` [Example 32, 4-cyclohexyl-7-nitroquinolin-8-ol] showed an SI50 in data set [1] of over 38. `Nc1nc2c(ncn2CCOCP(=O)(O)O)c(=O)[nH]1` [Positive control drug, 9-[2-(phosphonylmethoxy)ethyl]guanine, reference compound]: the SI50 in data set [2] was over 73; in data set [3], over 68; in data set [1] it was over 119.
